## Percent effect of library compounds

Mtb cholesterol medium: 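Whole-cell growth test on Mycobacterium tuberculosis, read after 4 days in a medium based on cholesterol and the lipid DPPC; the read-out is not stated. Compounds at 500 µM. Higher reads as more growth inhibition (inferred: compounds with an IC50 in retests scored well above the rest). Of about 18,000 compounds tested this way, about 900 (5%) reached 50% or more in at least one test.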
Mtb glucose medium: 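Whole-cell growth test on Mycobacterium tuberculosis, read after 3 days in glucose-containing 7H9 medium; the read-out is not stated. Concentration: 500 µM. Direction is inferred from retests: higher values go with more growth inhibition. Of about 18,000 compounds tested this way, about 1,400 (7.9%) reached 50% or more in at least one test.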

Values are the deposited “Percent Effect”, in %.
The controls that fix the scale are not given in the record; negative values are as filed.
This is part of a subset picked to be rich in strong results.
A dash means the value is not listed here; it may have been measured.

For CC(C)C1c2nccn2CCCN1C(=O)c1cocn1 (stereo unspecified) the result was Mtb cholesterol medium: -15.1%.
For Cc1ccc(C(C)NC(=O)NCCN2CCOCC2)o1 (stereo unspecified) the result was Mtb glucose medium: 11.27%.
For CC(=O)c1cccc(OCCN(C)C)c1 the result was Mtb glucose medium: 8.566%.
For CN(C)[C@@H]1CN(C(=O)c2ccncc2F)C[C@H]1CO the result was Mtb glucose medium: -4.483%.
For NC(=O)COC(=O)c1cccnc1-n1cncn1 the result was Mtb glucose medium: -0.06953%.
For CCc1nc(CN2CCN(c3cnccn3)CC2)n[nH]1 the result was Mtb glucose medium: -6.479%.
For OCCn1ncc2c1CN(CCc1ccccn1)C2 the result was Mtb cholesterol medium: -39.8%.
For CCC(CO)NC(=O)Nc1ccc(N2CCCC2)nc1 (stereo unspecified) the result was Mtb glucose medium: 1.875%.
For CCC(C(=O)NCc1ccc(F)c(F)c1)n1cccn1 (stereo unspecified) the result was Mtb glucose medium: 47.16%.
For OCC(CO)(CO)NCc1ccc(Cl)cc1Cl the result was Mtb glucose medium: 16.51%.
For CC(C)n1ccnc1CN1CCCC2(C1)OCCO2 the result was Mtb glucose medium: 10.07%.
For c1ccc(OCCCNCc2ccsc2)nc1 the result was Mtb glucose medium: 34.12%.
For Cc1noc(Cl)c1CC(=O)N1CCN(CC(C)O)CC1 (stereo unspecified) the result was Mtb glucose medium: -2.216%.
For Cc1ccc(CC(=O)N2CCN(CCO)CC2)cc1C the result was Mtb cholesterol medium: 1.688%.
For CCCN(CCO)Cc1nc(CC(C)C)no1 the result was Mtb cholesterol medium: 12.93%.
For CC(C)Cc1cc(CNC(=O)CSc2cnn[nH]2)no1 the result was Mtb glucose medium: 49.42%.
For O=S1(=O)CCC(n2cnc(I)n2)C1 (stereo unspecified) the result was Mtb glucose medium: 1.101%.
For COc1ccc(NC(=O)C2CCCN2S(C)(=O)=O)cn1 (stereo unspecified) the result was Mtb cholesterol medium: -76.94%.
For CN(C1CCCC1)S(=O)(=O)NCCNc1ccccn1 the result was Mtb cholesterol medium: 79.93%; Mtb glucose medium: 59.26%.
For Cc1ccc2c(c1)OC(C)CN2C(=O)c1ccccn1 (stereo unspecified) the result was Mtb glucose medium: 53.16%.
For N#CC1(NC(=O)CCSc2ccccn2)CCC1 the result was Mtb cholesterol medium: 12.44%.
For Cc1nnc(SCC=Cc2ccccc2)n1CC(N)=O the result was Mtb cholesterol medium: -6.213%; Mtb glucose medium: 5.925%.
For CCN(CC)C(C)CNc1ccc2nnnn2n1 (stereo unspecified) the result was Mtb cholesterol medium: -24.43%.
For NC1CCN(C(=O)c2ccccn2)C1 (stereo unspecified) the result was Mtb glucose medium: -6.902%.
For O=C(NC1CC1)C1CCCN1 (stereo unspecified) the result was Mtb glucose medium: -3.543%.
For CN(C)c1cc(Cn2cnc3sccc3c2=O)ccn1 the result was Mtb glucose medium: 52.7%.
For CN1CCC(NC(=O)c2coc(Br)c2)CC1=O (stereo unspecified) the result was Mtb glucose medium: 59.11%.
For CS(=O)(=O)NCC1CCCN(c2ccncc2Cl)C1 (stereo unspecified) the result was Mtb cholesterol medium: 24.25%; Mtb glucose medium: 34.72%.

4 of the entries, repeated:

| structure | Mtb cholesterol medium | Mtb glucose medium |
|---|---|---|
| `CCN(CC)C(C)CNc1ccc2nnnn2n1` (stereo unspecified) | -24.43 | - |
| `CC(=O)c1cccc(OCCN(C)C)c1` | - | 8.566 |
| `CCCN(CCO)Cc1nc(CC(C)C)no1` | 12.93 | - |
| `Cc1ccc2c(c1)OC(C)CN2C(=O)c1ccccn1` (stereo unspecified) | - | 53.16 |

Source: ChEMBL document CHEMBL3988442, “University of Dundee, Small-Polar-MMV Screening Library” (2021).